Compound potency records, mixed from different reports. Data source: NIAID ChemDB in PubChem.

Common to all: growth or infection tests; agent: Cryptococcus neoformans

Rows are shuffled and stem from different studies.

smiles,strain,read by,read-out,result
CN[C@H]1CC[C@@H](c2ccc(Cl)c(Cl)c2)c2ccccc21,98BC1-86,broth dilution,MFC,8 µg/mL
C[C@@H](c1nc(-c2ccc(C#N)cc2)cs1)[C@](O)(Cn1cnnc1)c1ccc(F)cc1F,A26037,-,MFC99,0.06 µg/mL
CCCCN(Cc1cn(Cc2ccccc2C#N)nn1)CC(O)(Cn1cncn1)c1ccc(F)cc1F,-,-,MIC80,64 µg/mL
C[C@@H](n1ccn(-c2ccc(OC(F)(F)C(F)F)cc2)c1=O)C(O)(Cn1cncn1)c1ccc(F)cc1F,TIMM1740,-,MIC,0.016 µg/mL
CC(=O)OC1CCN(CC(O)(Cn2cncn2)c2ccc(F)cc2F)CC1,BLS108,broth dilution,MIC80,0.658 µM
CC(C)C(CCC(C)C1CC[C@@]2(C)C3=C(CCC12C)C1(C)CC[C@H](O)C(C)(C)C1CC3)Sc1ccccc1,A.34144,-,MIC90,25 µg/mL
O=C(COc1cccc2ccccc12)OC1CCN(CC(O)(Cn2cncn2)c2ccc(F)cc2F)CC1,BLS108,broth dilution,MIC80,0.479 µM
CC[C@@]1(O)C[C@H](O[C@H]2C[C@H](N(C)C)[C@H](O[C@H]3C[C@H](O)[C@H](O[C@H]4CCC(=O)[C@H](C)O4)[C@H](C)O3)[C@H](C)O2)c2c(cc3c(c2O)C(=O)c2c(O)cccc2C3=O)[C@H]1C(=O)OC,NCPF 3379,-,MIC,35.7 µM
CCCCCOc1ccc(-c2cc(-c3ccc(C(=O)N[C@H]4C[C@@H](O)[C@@H](O)NC(=O)[C@@H]5[C@@H](O)[C@@H](C)CN5C(=O)[C@H]([C@H](O)CC(N)=O)NC(=O)[C@H]([C@H](O)[C@@H](O)c5ccc(O)c(OS(=O)(=O)O)c5)NC(=O)[C@@H]5C[C@@H](O)CN5C(=O)[C@H]([C@@H](C)O)NC4=O)cc3)no2)cc1,YC203,broth dilution,MIC,>50 µg/mL
CCCCN(Cc1cn(Cc2c(Cl)cccc2Cl)nn1)CC(O)(Cn1cncn1)c1ccc(F)cc1F,-,-,MIC80,>64 µg/mL
C[C@@H](n1ncn(-c2ccc(OCC(F)(F)C(F)F)cc2)c1=O)[C@](O)(Cn1cncn1)c1ccc(F)cc1F,DUMC 124.96,-,MIC,0.0625 µg/mL
CCCCN(Cc1cn(Cc2ccc(F)cc2)nn1)CC(O)(Cn1cncn1)c1ccc(F)cc1F,-,-,MIC80,2 µg/mL
COc1cccc2c1C(=O)c1c(O)c3c(c(O)c1C2=O)C[C@@](O)(C(C)=O)C[C@@H]3O[C@H]1C[C@H](N)[C@H](O)[C@H](C)O1,Clinical isolate (capsule-negative),-,MIC,>100 µM
Nc1ncccc1-c1cc(Cc2ccc(COc3ccccn3)cc2)no1,-,broth dilution,MIC50,0.5 µg/mL
COC(=O)[C@@H]1N=C1/C=C\CCCCCCCCCCCCC(C)(C)C,var. grubii,-,MIC,8–10 µg/mL
CC(C)C(N)CCC(C)C1CCC2C3CC=C4C[C@@H](O)CCC4(C)C3CCC12C,A.34144,-,MIC90,≤0.05 µg/mL
C[C@@H](n1ncn(-c2ccc(OCC(F)(F)C(F)F)cc2)c1=O)[C@](O)(Cn1cncn1)c1ccc(F)cc1F,TIMM1855,-,MIC,0.25 µg/mL
CCCCN(Cc1cn(Cc2ccccc2Br)nn1)CC(O)(Cn1cncn1)c1ccc(F)cc1F,-,-,MIC80,64 µg/mL
C[C@@H](n1ccn(-c2ccc(OC(F)(F)C(F)F)cc2)c1=O)C(O)(Cn1cncn1)c1ccccc1F,TIMM1740,-,MIC,0.06 µg/mL
COc1ccc(/C=C/C(=O)OC2CCN(CC(O)(Cn3cncn3)c3ccc(F)cc3F)CC2)cc1,BLS108,broth dilution,MIC80,0.502 µM
C[C@@H](N1CCN(c2ccc(OC(F)(F)C(F)F)cc2)C1=O)C(O)(Cn1cncn1)c1ccccc1F,TIMM1855,-,MIC,<0.016 µg/mL
CCCCCCCCCCCCC/C=C\C1=N[C@H]1C(=O)OC,var. gatti,-,MIC,2 µg/mL
OC(Cn1cncn1)(Cn1nnnc1CCN1CCN(c2ccc(Cl)cc2)CC1)c1ccc(F)cc1F,LA314,-,MIC,>16 µg/mL
CC(C)C(=O)CCC[C@@H]1CO[C@@](Cn2cccc2)(c2ccc(F)cc2F)C1,B42419,-,MIC,>100 µg/mL
Cc1ccc(/C=C/C(=O)OC2CCN(CC(O)(Cn3cncn3)c3ccc(F)cc3F)CC2)cc1,BLS108,broth dilution,MIC80,0.13 µM
CCCCN(Cc1cn(Cc2ccc([N+](=O)[O-])cc2)nn1)CC(O)(Cn1cncn1)c1ccc(F)cc1F,-,-,MIC80,64 µg/mL
CC(C)C(=N)CCC[C@H]1CO[C@@](Cn2cccc2)(c2ccc(F)cc2F)C1,A.34144,-,MIC,25 µg/mL
CCCCCCCCCCCCCCCC1=N[C@H]1C(=O)OC,var. gatti,-,MIC,2 µg/mL
C[C@H](n1nnnc1CCN1CCN(c2cccc(Cl)c2)CC1)[C@](O)(Cn1cncn1)c1ccc(F)cc1F,LA314,-,MIC,>16 µg/mL
O=C(/C=C/c1cccc(Br)c1)OC1CCN(CC(O)(Cn2cncn2)c2ccc(F)cc2F)CC1,BLS108,broth dilution,MIC80,0.458 µM
C[C@@H](c1ncncc1F)[C@](O)(Cn1cncn1)c1ccc(F)cc1F,-,broth dilution,MIC50,0.03 µg/mL
CNC(CCC(C)C1CC[C@@]2(C)C3=C(CCC12C)C1(C)CC[C@H](O)C(C)(C)C1CC3)C(C)C,A.34144,-,MIC90,0.78 µg/mL
C[C@@H](N1CCN(c2ccc(OCC(F)(F)C(F)F)cc2)C1=O)C(O)(Cn1cncn1)c1ccc(F)cc1F,TIMM1855,-,MIC,0.03 µg/mL
O=C(CC1=Nc2ccccc2C1)OC1CCN(CC(O)(Cn2cncn2)c2ccc(F)cc2F)CC1,BLS108,broth dilution,MIC80,2.019 µM
CCC(C)CC(C)CCCCCCCCC(=O)N[C@H]1C[C@@H](O)[C@H](NCCN)NC(=O)[C@@H]2[C@@H](O)CCN2C(=O)[C@H]([C@H](O)CCN)NC(=O)[C@H]([C@H](O)[C@@H](O)c2ccc(O)cc2)NC(=O)[C@@H]2C[C@@H](O)CN2C(=O)[C@H]([C@@H](C)O)NC1=O,1 isolates,-,MIC,>2 µg/mL
CC(C)C(CCC(C)C1CCC2C3CC=C4C[C@@H](O)CCC4(C)C3CCC12C)NS(=O)(=O)O,B42419,-,MIC90,0.1 µg/mL
COc1ccc(N2CCN(CCc3nnnn3[C@@H](C)[C@](O)(Cn3cncn3)c3ccc(F)cc3F)CC2)cc1,LA314,-,MIC,>16 µg/mL
CC(C)C(=O)CCC[C@H]1CO[C@@](Cn2cccc2)(c2ccc(F)cc2F)C1,B42419,-,MIC,>100 µg/mL
CCCCCCCCCC/C=C\C1=N[C@H]1C(=O)OC,var. grubii,-,MIC,4–5 µg/mL
C[C@H](n1nnnc1CCN1CCN(c2ccccc2Cl)CC1)[C@](O)(Cn1cncn1)c1ccc(F)cc1F,LA314,-,MIC,8 µg/mL

Repeating the final 4 entries:

smiles | strain | read by | read-out | result
COc1ccc(N2CCN(CCc3nnnn3[C@@H](C)[C@](O)(Cn3cncn3)c3ccc(F)cc3F)CC2)cc1 | LA314 | - | MIC | >16 µg/mL
CC(C)C(=O)CCC[C@H]1CO[C@@](Cn2cccc2)(c2ccc(F)cc2F)C1 | B42419 | - | MIC | >100 µg/mL
CCCCCCCCCC/C=C\C1=N[C@H]1C(=O)OC | var. grubii | - | MIC | 4–5 µg/mL
C[C@H](n1nnnc1CCN1CCN(c2ccccc2Cl)CC1)[C@](O)(Cn1cncn1)c1ccc(F)cc1F | LA314 | - | MIC | 8 µg/mL

a–b is a range or a potency band. MIC50, MIC90 and the like: level of inhibition, or share of isolates inhibited. Blank or dashed fields: not listed here.